Source: patent US20140294884A1 (Novartis, published 2014)

Target: receptor for App on Chang conjunctiva epithelial cells (proteinaceous, not identified) (human)
Experiment: cell-based or functional assay

App of N. meningitidis strain MC58 (native, on the bacteria)
reduction of association of the MC58Δapp knockout with Chang cells against the wild type strain: 10 fold
